In paper PMC11050134, “A Complex-Type N-Glycan-Specific Lectin Isolated from Green Alga Halimeda borneensis Exhibits Potent Anti-Influenza Virus Activity” (International Journal of Molecular Sciences, 2024):

tested on: T1, HBL40; experiment: centrifugal ultrafiltration-HPLC, fluorescence detection; type: binding, Halimeda borneensis; conditions: 500 nM lectin (90 µL) + 300 nM PA-oligosaccharide (10 µL), 50 mM Tris-HCl pH 7.0, room temperature, 60 min; labelled compound
T1 construct: gene HBL40-1; native, purified from alga; about 40 kDa dimer of 20 kDa subunits (non-reducing 40, reducing 20 kDa)

Row | Compound | binding activity (%)
1 | CC(=O)N[C@H]1[C@H](O[C@@H]([C@H](O)[C@H](CNc2ccccn2)NC(C)=O)[C@H](O)CO)O[C@H](CO)[C@@H](O[C@@H]2O[C@H](CO[C@H]3O[C@H](CO)[C@@H](O)[C@H](O)[C@@H]3O[C@@H]3O[C@H](CO)[C@@H](O[C@@H]4O[C@H](CO)[C@H](O)[C@H](O)[C@H]4O)[C@H](O)[C@H]3NC(C)=O)[C@@H](O)[C@H](O[C@H]3O[C@H](CO)[C@@H](O)[C@H](O)[C@@H]3O[C@@H]3O[C@H](CO)[C@@H](O[C@@H]4O[C@H](CO)[C@H](O)[C@H](O)[C@H]4O)[C@H](O)[C@H]3NC(C)=O)[C@@H]2O)[C@@H]1O [compound 2, asialo-biantennae] | 100
2 | CC(=O)N[C@H]1[C@H](O[C@@H]([C@H](O)[C@H](CNc2ccccn2)NC(C)=O)[C@H](O)CO)O[C@H](CO)[C@@H](O[C@@H]2O[C@H](CO[C@H]3O[C@H](CO)[C@@H](O)[C@H](O)[C@@H]3O[C@@H]3O[C@H](CO)[C@@H](O)[C@H](O)[C@H]3NC(C)=O)[C@@H](O)[C@H](O[C@H]3O[C@H](CO)[C@@H](O)[C@H](O)[C@@H]3O[C@@H]3O[C@H](CO)[C@@H](O)[C@H](O)[C@H]3NC(C)=O)[C@@H]2O)[C@@H]1O [compound 4, agalacto-biantennae] | 80
3 | agalacto-triantennae [compound 8] | 56
4 | sialo-biantennae [compound 1] | 78
